Tests used:
[1] = tested on: MDA-MB-468 cells (EGFR++, HER2−); assay: targeted protein toxin mediated cell killing on MDA-MB-468 cells; assay type: cell-based, human
[2] = tested on: human A431 tumor cells; assay: A431 xenograft animal tumor model, tumor volume after treatment (Example A); assay type: in vivo, Balb/c nude mice
Procedure: Female Balb/c nude mice were injected subcutaneously with a suspension of human A431 tumor cells. Under the skin of the mice, a human epidermal carcinoma developed in the xenograft animal tumor model. After injection of the tumor cells, the xenograft tumor was allowed to develop to a size of approximately 170-180 mm^3. The A431 tumor cells have the following characteristics: high EGFR expressors, medium CD71 expressors, low HER2 expressors.
In Table A, the results of the treatment of control mice and tumor-bearing mice are presented. Tumor-bearing mice were treated with the indicated antibodies directed to either human Her2/neu, human EGFR, or human CD71, which are cell-surface receptors on the xenograft tumor. Cetuximab was covalently conjugated with saponin SO1861. […] The ADCs trastuzumab-saporin (covalent conjugate) and anti-CD71 mAb (OKT-9, IgG)-saporin (covalent conjugate) were tested for their tumor-attacking efficacy in the mice, measured as tumor volume in time after start of the treatment with the ADCs. The dose of the ADCs was sub-optimal in the tumor model. That is to say, from previous experiments, it was established at which sub-optimal dose of the ADCs no tumor-regression or arrest of tumor growth would be observable.

## Cetuximab-Cys-(dendron(-L-SO1861)^4)^3,9: Dendron(-L-SO1861)^4 conjugated to cetuximab via cysteine residues, DAR3,9
[1]; + 10 pM cetuximab-saporin
  IC50: 0.4 nM
[1]; alone
  toxin-mediated cell killing: not induced

## Cetuximab-SO1861: saponin SO1861-EMCH covalently coupled to reduced cysteines of Cetuximab
[2]
  outcome (death/euthanasia or survival): death/euthanasia
[2]; ADCs at sub-optimal dose, tumor ~170-180 mm^3 at start of treatment
  tumor size (volume in mm^3): 2000 mm^3
